PubChem BioAssay AID624099 | ICCB-Longwood, 2012
Shown is one part, drawn at random, of about 21,000 reagents tested. Over the whole deposit, 497 (2.4%) are marked active. 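Higher z means weaker E2 silencing; only reporter increases were scored, and knock-downs that hurt cell survival may mask genuine repressor factors.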 Entries without a mark were called inactive. Reagent sequences are not shown.

- Assay: 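Human genes that papillomavirus E2 requires to repress the HPV18 LCR promoter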 (primary screen)
- Cells: human C33A cervical carcinoma cells (HPV-negative) stably expressing BPV1 E2 and an HPV18 LCR luciferase reporter
- Knock-down reagent: siRNA pool against human genes, 40 nM
- Timing: 72 h
- Measurement: 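Per-well luciferase luminescence, z-scored on each plate against the plate mean and SD with control wells left out, then averaged across three replicate plates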
- Reading the numbers: mean z-score and z-score: higher = stronger reporter signal, weaker E2 silencing
- Rule for the call: 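Hit if mean z-score reaches 2 and two or more of three replicate z-scores also reach 2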

The opening 2 entries as a preview:
no.	gene	mean z-score	z-score, replicate A	z-score, replicate B	z-score, replicate C
1	TPTE (transmembrane phosphatase with tensin homology)	0.01	-0.01	0.17	-0.13
2	SOX3 (SRY-box transcription factor 3)	-0.78	-0.99	-0.6	-0.76

Results, from the start:
no.	gene	mean z-score	z-score, replicate A	z-score, replicate B	z-score, replicate C
1	TPTE (transmembrane phosphatase with tensin homology)	0.01	-0.01	0.17	-0.13
2	SOX3 (SRY-box transcription factor 3)	-0.78	-0.99	-0.6	-0.76
3	LGALS4 (galectin 4)	0.26	0.56	-0.06	0.29
4	UQCR10 (ubiquinol-cytochrome c reductase, complex III subunit X)	-1.46	-1.24	-1.18	-1.96
5	PLEKHA8 (pleckstrin homology domain containing A8)	0.44	0.72	0.09	0.52
6	JAZF1 (JAZF zinc finger 1)	-0.54	-0.81	-0.68	-0.14
7	PTPRCAP	-0.82	-0.77	-0.83	-0.85
8	LOC392546 (retired record)	1.01	0.6	1.18	1.26
9	PROS1 (protein S)	-0.58	-0.66	-0.38	-0.7
10	MAP9 (microtubule associated protein 9)	0.33	0.43	0.68	-0.11
11	CGRRF1 (cell growth regulator with ring finger domain 1)	0.82	0.58	0.72	1.15
12	DNAJB1 (DnaJ heat shock protein family (Hsp40) member B1)	3.29 (active)	2.99	3.56	3.32
13	HSPA2 (heat shock protein family A (Hsp70) member 2)	-0.63	-0.56	-0.78	-0.55
14	TMEM236 (transmembrane protein 236)	1.09	1.13	1.08	1.06
15	CARHSP1 (calcium regulated heat stable protein 1)	-0.24	-0.68	0.29	-0.35
16	METRNL (meteorin like, glial cell differentiation regulator)	0.33	0.26	0.39	0.33
17	ZNF581 (zinc finger protein 581)	-0.69	-0.44	-0.97	-0.66
18	CREBZF (CREB/ATF bZIP transcription factor)	-0.13	-0.11	-0.1	-0.18
19	CLMB (calcimembrin)	-0.43	-0.84	0.1	-0.55
20	PUM1 (pumilio RNA binding family member 1)	-2.01	-2.09	-2.01	-1.93
21	DHCR24 (24-dehydrocholesterol reductase)	1.05	0.86	1.15	1.15
22	MMS22L (MMS22 like, DNA repair protein)	-1.14	-1.18	-1.14	-1.09
23	BNIPL (BCL2 interacting protein like)	-0.09	0.05	-0.14	-0.19
24	LOC389188 (retired record)	-1.34	-1.14	-1.47	-1.4
25	LOC401307 (retired record)	-0.99	-0.75	-1.39	-0.84
26	CASP9 (caspase 9)	0.92	1.07	0.92	0.78
27	ASB7 (ankyrin repeat and SOCS box containing 7)	-0.26	-0.06	-0.06	-0.65
28	ANKRD30B (ankyrin repeat domain 30B)	1.35	1.5	1.29	1.26
29	RDH5 (retinol dehydrogenase 5)	0.77	1.03	0.65	0.63
30	FER1L6-AS2 (FER1L6 antisense RNA 2)	-0.04	-0.5	0.3	0.06
31	DND1 (DND microRNA-mediated repression inhibitor 1)	-1.19	-1.45	-0.94	-1.18
32	KLK13 (kallikrein related peptidase 13)	-0.85	-0.97	-0.44	-1.13
33	NUTM2F (NUT family member 2F)	-0.03	-0.12	-0.16	0.18
34	CDH16 (cadherin 16)	-0.8	-0.92	-0.77	-0.71
35	AEBP2 (AE binding protein 2)	-0.72	-0.88	-0.84	-0.45
36	PAM (peptidylglycine alpha-amidating monooxygenase)	-0.39	-0.54	-0.31	-0.3
37	SLC25A1	0.44	0.48	0.4	0.44
38	RUNDC3A (RUN domain containing 3A)	0.38	0.52	0.14	0.49
39	CNRIP1 (cannabinoid receptor interacting protein 1)	0.71	0.78	0.79	0.55
